PubChem BioAssay AID504761 | Drosophila RNAi Screening Center – 2011
In all, the deposit lists about 22,000 reagents; below is a random part of those that have a named target and a result. Over the whole deposit, 116 (0.52%) are marked active. 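Calls depend on retest data that are not deposited; infection was ranked per plate without normalising between plates; the unit of the infection score is not given.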 Raw values are not corrected between plates. Entries without a mark were called inactive. Names joined by + are all predicted targets of the reagent. Reagent sequences are not shown. Not given: the amount of reagent, the time to read-out.

- Screen: 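Insect host genes that dengue virus relies on to spread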 (primary screen)
- Cell system: D.Mel-2 cells from Drosophila
- Reagent: long dsRNA against Drosophila genes
- Challenge: infection with dengue virus type 2; dose and infection time not stated
- Measured: 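Per well on two replicate plates, imaging gave the percent of cells positive for viral envelope protein, ranked by infection, and a nuclear count of cells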
- Scale: infection score: higher = more virus-infected cells; cell count: higher = more cells in the well
- Hit rule: 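Very low infection ranking in both replicate wells (chance probability at most 0.065), then a retest showing infection dropped 1.5-fold or more at p below 0.05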
- Calls: active = confirmed: knock-down lowers infection; inactive = not picked or not confirmed

For mu2 (mutator 2) [DRSC08726], what was measured?
infection score, replicate 1: 19.4; infection score, replicate 2: 11.9; cell count, replicate 1: 4746; cell count, replicate 2: 5918

For mu2 (mutator 2) [DRSC21534], what was measured?
infection score, replicate 1: 0.75; infection score, replicate 2: 2.61; cell count, replicate 1: 5997; cell count, replicate 2: 6236

How did the screen score Cftr (CF transmembrane conductance regulator) [DRSC15872]?
infection score, replicate 1: 3.91; infection score, replicate 2: 3; cell count, replicate 1: 6451; cell count, replicate 2: 6637

Which result is listed for Cftr (CF transmembrane conductance regulator) [DRSC24655]?
infection score, replicate 1: 1.46; infection score, replicate 2: 3.44; cell count, replicate 1: 6580; cell count, replicate 2: 5905

With CG31075 [DRSC16016], what does the deposit list?
infection score, replicate 1: 7.25; infection score, replicate 2: 2.23; cell count, replicate 1: 4553; cell count, replicate 2: 6505

Which result is listed for Rpt6R (Regulatory particle triple-A ATPase 6-related) [DRSC15431]?
infection score, replicate 2: 1.07; cell count, replicate 1: 386; cell count, replicate 2: 467

How did the screen score Tim17b2 (Translocase inner membrane 17) [DRSC03457]?
infection score, replicate 1: 3.6; infection score, replicate 2: 3.39; cell count, replicate 1: 6713; cell count, replicate 2: 6698

How did the screen score Tim17b2 (Translocase inner membrane 17) [DRSC28544]?
infection score, replicate 1: 10.8; infection score, replicate 2: 23.1; cell count, replicate 1: 3049; cell count, replicate 2: 6428

For CG31797 [DRSC02476], what was measured?
infection score, replicate 1: 1.43; infection score, replicate 2: 13.2; cell count, replicate 1: 6525; cell count, replicate 2: 5624

For CG31797 [DRSC02477], how do the results read?
infection score, replicate 1: 3.16; infection score, replicate 2: 8.26; cell count, replicate 1: 6207; cell count, replicate 2: 6177

With l(3)72Dp (lethal (3) 72Dp) [DRSC10477], what was measured?
infection score, replicate 1: 1.38; infection score, replicate 2: 2.92; cell count, replicate 1: 5863; cell count, replicate 2: 6431

How did the screen score Pkd2 (Polycystic kidney disease 2) [DRSC02962]?
infection score, replicate 1: 7.09; infection score, replicate 2: 15.8; cell count, replicate 1: 4526; cell count, replicate 2: 2626

Which result is listed for Pkd2 (Polycystic kidney disease 2) [DRSC27522]?
infection score, replicate 1: 6.23; infection score, replicate 2: 17.9; cell count, replicate 1: 6586; cell count, replicate 2: 6303

Which result is listed for Dic3 [DRSC06058]?
infection score, replicate 1: 7.55; infection score, replicate 2: 11.8; cell count, replicate 1: 6076; cell count, replicate 2: 5840

What is on record for CR18166 (pseudo) [DRSC17260]?
infection score, replicate 1: 0.23; infection score, replicate 2: 0.03; cell count, replicate 1: 6203; cell count, replicate 2: 6483

With CR18166 (pseudo) [DRSC18147], how do the results read?
infection score, replicate 1: 4.1; infection score, replicate 2: 17.1; cell count, replicate 1: 4737; cell count, replicate 2: 4568

How did the screen score CR18166 (pseudo) [DRSC27717]?
infection score, replicate 1: 2.06; infection score, replicate 2: 31.9; cell count, replicate 1: 6687; cell count, replicate 2: 5039

What is on record for Cpr49Aa (Cuticular protein 49Aa) [DRSC07197]?
infection score, replicate 1: 13.4; infection score, replicate 2: 5.75; cell count, replicate 1: 6362; cell count, replicate 2: 6071

With CR18275 + CR18166 + CG32817 [DRSC17249], what does the deposit list?
infection score, replicate 1: 1.05; infection score, replicate 2: 0.11; cell count, replicate 1: 6490; cell count, replicate 2: 6229

What is on record for CG6149 [DRSC10593]?
infection score, replicate 1: 1.67; infection score, replicate 2: 2.47; cell count, replicate 1: 5627; cell count, replicate 2: 5797

Which result is listed for Klp54D (Kinesin-like protein at 54D) [DRSC07450]?
infection score, replicate 1: 8.24; infection score, replicate 2: 13.5; cell count, replicate 1: 6237; cell count, replicate 2: 6449

What is on record for CG13727 [DRSC10055]?
infection score, replicate 1: 6.15; infection score, replicate 2: 2.13; cell count, replicate 1: 6387; cell count, replicate 2: 6572

Which result is listed for Cpr49Ac (Cuticular protein 49Ac) [DRSC07199]?
infection score, replicate 1: 8.49; infection score, replicate 2: 9.41; cell count, replicate 1: 6043; cell count, replicate 2: 6217

What is on record for Pex13 (Peroxin 13) [DRSC06877]?
infection score, replicate 1: 16.2; infection score, replicate 2: 2.09; cell count, replicate 1: 6207; cell count, replicate 2: 6208

How did the screen score CG4477 [DRSC10425]?
infection score, replicate 1: 1.57; infection score, replicate 2: 4.96; cell count, replicate 1: 6102; cell count, replicate 2: 6236

With Flad2 (Flavin adenine dinucleotide synthetase 2) [DRSC02531], how do the results read?
infection score, replicate 1: 3.38; infection score, replicate 2: 2.21; cell count, replicate 1: 6795; cell count, replicate 2: 6749

What did the screen give for Flad2 (Flavin adenine dinucleotide synthetase 2) [DRSC27627]?
infection score, replicate 1: 32.8; infection score, replicate 2: 13.7; cell count, replicate 1: 5811; cell count, replicate 2: 6776

Targets listed so far whose gene name starts with F or f:
Flad2 (Flavin adenine dinucleotide synthetase 2) [DRSC02531] — infection score, replicate 1 = 3.38; infection score, replicate 2 = 2.21; cell count, replicate 1 = 6795; cell count, replicate 2 = 6749
Flad2 (Flavin adenine dinucleotide synthetase 2) [DRSC27627] — infection score, replicate 1 = 32.8; infection score, replicate 2 = 13.7; cell count, replicate 1 = 5811; cell count, replicate 2 = 6776
